Experimental data taken from publication PMC11307329.

Tested on: T1, XisF4 (native excisionase) (Pseudomonas aeruginosa PAO1)
T1 sequence (looked up): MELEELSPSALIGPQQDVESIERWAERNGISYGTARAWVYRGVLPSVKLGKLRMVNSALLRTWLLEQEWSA
Assay: EMSA
Settings: recombinant protein; residues 1-71; protein details: His6 (pET28a); probe letters rebuilt from the primers and the genome

CTGACCGTCCGACTCGATACTGACGCGAATTTGATGGCTGATTTTCTTCATCTTTAACGATCCAAATTGGTACGAATTGAAACCGCAATAGGTGGCTTATCTGACGTGTTACAGGGGCGTCGGCCGCGCCTTCGGCCTATCGCTCATGCCTTGCGCTCCCGGCCGGCGGCGCGGCCCGCCCCTCATGGCGGCACCCCTACCGCCGCTAGCGCCGTCATCACCGTCCACCAGTGATGCAGCGCCCAGCCCATCGCCACCGGGGCGAGGAATTCCCAATCGATCATTTCTGCCTCCAGGGCCGCGAGGCGTATTCGGAATCGGGGACGATGGTCAGCGGCGACTGCCCCCTGGCCGGTGCGTCTGCGGAGGCGGCAACAGGCGCTGCCGGAACGATGCTGGCCACCGCGCCGGGCTGCCTCCCGGTACAGGTGACGGTCTGTTTCCACTCCTCATAGCGAAGCTCTACGACGCACTCGCCCTTGGGCGTTACCCGGTAGCCGGAGCCGATCAGTTGCCAACTGGTGAGTTCCAGG (double strand) [pa0727 (int4) promoter]
binding result: binds

Tags and fusion partners may be left off the protein sequences shown.
